The entries are a selection whose mix differs from that of the whole data set. The source made the active and inactive calls. No stated cut-off is given here; in the data, active means inhibition above about 52%; inactive means the rest.

The nature of this assay: suppresses PrP 5' UTR mRNA reporter expression (AID 488862). Further: 0 = median of the neutral control wells. The settings on record: cell-based PrP 5' UTR mRNA reporter, plate reader; hits give high values; concentration not given here.
`COc1ccc(NC2CCN(C(=O)OC(C)(C)C)CC2)cc1`: the inhibition is inactive: -58.3%.

For the compound `O=C(NCC1(N2CCCCC2)CCCCC1)c1ccc(OC(F)F)cc1`, the inhibition is inactive: -9.2%. The result for `N#CC1(Nc2ccccc2)CCN(CCc2ccccc2)CC1` reads inactive: -8.17%; that for `CCN1CCC(Nc2ccc(Cl)cc2)CC1`, inactive: -20.9%; that for `O=C(NCC1(N2CCCCC2)CCCCC1)c1cccc([N+](=O)[O-])c1`, inactive: -10.2%. With `CSc1ccc(C(=O)NCC2(N3CCOCC3)CCCCC2)cc1`, the inhibition was inactive: -32.8%.

`O=C(NCC1(N2CCCCC2)CCCCC1)c1cncc(Br)c1`: the inhibition is inactive: -7.47%. The result for `CN1CCC(Nc2cccc(F)c2)CC1` reads inactive: -1.53%; that for `CC(C)c1ccc(NC2CCN(C(=O)OC(C)(C)C)CC2)cc1`, inactive: -49.8%; that for `CN(C)c1cccc(C(=O)NCC2(N3CCCCC3)CCCCC2)c1`, inactive: -32.4%. The result for `COc1ccc(CN(CCCl)CCCl)cc1Cl` reads inactive: -1.52%. The result for `O=C(NCC1(N2CCOCC2)CCCCC1)c1cc(F)c(F)cc1Cl` reads inactive: -10.5%. In the case of `COc1cc(OC)c(C(=O)NCC2(N(C)C)CCCCC2)cc1OC`, the inhibition was inactive: -16.9%.

Regarding `CCOC(=O)N1CCC(Nc2ccc(C)cc2)CC1`, the inhibition is inactive: -17.7%.

As to `N/C(=N\O)c1c(N)no[n+]1[O-]`, the inhibition was inactive: -21%. The result for `O=C(OC1CN2CCC1CC2)C1c2ccccc2C=Cc2ccccc21` (centres undefined) reads inactive: -59.3%; that for `COc1cc(C(=O)NCC2(N3CCOCC3)CCCCC2)cc(OC)c1C`, inactive: -17.6%; that for `O=C(NCC1(N2CCOCC2)CCCCC1)c1cc(Br)ccc1Cl`, inactive: -14%. The result for `COc1ccc(C(=O)NCC2(N3CCOCC3)CCCCC2)cc1OC` reads inactive: -2.27%; that for `CN(C)C1(CNC(=O)c2cccc(C#N)c2)CCCCC1`, inactive: 13.5%; that for `Cc1cc(N(CCCl)CCCl)ccc1C=O`, inactive: -21.2%. In the case of `CCCN1CCC(Nc2cc(OC)cc(OC)c2)CC1`, the inhibition was inactive: 8.9%.

As to `c1ccc(CN2CCC(Nc3ccccc3)CC2)cc1`, the inhibition was inactive: 1.35%. The result for `N#Cc1ccc(C(=O)NCC2(N3CCCCC3)CCCCC2)cc1` reads inactive: 4.28%. `CC(C)(C)OC(=O)N1CCC(N(C(=O)c2ccccc2)c2ccc(Cl)cc2)CC1`: the inhibition was inactive: -9.8%.

Regarding `CCN1CCC(Nc2cccc(F)c2)CC1`, the inhibition was inactive: -13.7%.

As for `Cc1ccccc1NC1(C#N)CCN(Cc2ccccc2)CC1`, the inhibition was inactive: -16.7%. The result for `Cn1c(=O)[nH]cc(N(CCCl)CCCl)c1=O` reads inactive: -10.8%. The result for `CN(C)c1ccc(C(=O)NCC2(N3CCCCC3)CCCCC2)cc1` reads inactive: -18.9%; that for `O=C(NCC1(N2CCCCC2)CCCCC1)c1ccco1`, inactive: -9.04%. The result for `CC(=O)N(c1ccccc1)C1CCNCC1` reads inactive: -9.34%.

As for `COc1cc(OC)cc(C(=O)NCC2(N3CCCCC3)CCCCC2)c1`, the inhibition was inactive: -24.1%. The result for `Fc1ccccc1NC1CCN(Cc2ccccc2)CC1` reads inactive: 5.45%; that for `Cc1ccc(C(=O)NCC2(N3CCCCC3)CCCCC2)o1`, inactive: -5.92%; that for `Cc1ccc(NC2(C#N)CCN(Cc3ccccc3)CC2)cc1`, inactive: -2.74%. The result for `COc1cc(OC)cc(C(=O)NCC2(N3CCOCC3)CCCCC2)c1` reads inactive: -13.5%; that for `COc1cccc(C(=O)N(c2cc(C)cc(C)c2)C2CCN(C(=O)OC(C)(C)C)CC2)c1`, inactive: -23%; that for `CCC(CO)(C(=O)OC1CN2CCC1CC2)c1ccccc1` (centres undefined), inactive: -12.4%.

As for `CN1CCC(Nc2ccc(Cl)cc2)CC1`, the inhibition is inactive: -0.688%. As for `CN1CCC(Nc2ccc(F)c(Cl)c2)CC1`, the inhibition was inactive: -32.3%. The result for `CCOc1ncccc1C(=O)NCC1(N2CCOCC2)CCCCC1` reads inactive: -32.3%. The result for `O=C(O)C1(Nc2ccccc2)CCN(Cc2ccccc2)CC1` reads inactive: -7.03%. The result for `CC(C)(C)OC(=O)N1CCC(Nc2ccccc2)CC1` reads inactive: -9.7%.

Consider `CCCOc1ccc(C(=O)NCC2(N(C)C)CCCCC2)cc1`, for which the inhibition is inactive: -12.1%.
